Results from patent US20240122867A1, “CORONAL PROTEIN-COATED NANOPARTICLES AND USES THEREOF” (UNIVERSITY OF CENTRAL FLORIDA RESEARCH FOUNDATION, INC., priority 2021, published 2024).

Tested on: coronal proteins on NPs
Set-up: species or system mouse
Settings: for V5 Sera_Nanoparticles Quantitative Value (Normalized Total Spectra): HBPE-NPs incubated 1 h with IAV day 5 (V5) mouse sera, 20:1 NP:sera, centrifuged and washed; for V5 Sera Alone (Control) Quantitative Value (Normalized Total Spectra): IAV day 5 (V5) mouse sera alone, no NPs (sera-only control)

Row | Molecule | V5 Sera_Nanoparticles Quantitative Value (Normalized Total Spectra) | V5 Sera Alone (Control) Quantitative Value (Normalized Total Spectra)
1 | Alpha-1-acid glycoprotein 1 (protein, UniProt Q60590 19-207, looked up) Alpha-1-acid glycoprotein 1: QNPEHANFTIGEPITNETLSWLSDKWFFMGAAFRKLEYRQAIQTMQSEFFYLTTNLINDTIELRESQTIGDQCVYNSTHLGFQRENGTFSKYEGGVETFAHLIVLRKHGAFMLAFDLKDEKKRGLSLYAKRPDITPELREVFQKAVTHVGMDESEIIFVDWKKDRCGQQEKKQLELGKETKKDPEEGQA | 5.4396 | 3.7009
2 | Complement component C8 beta chain (protein, UniProt Q8BH35 54-589, looked up) Complement component C8 beta …: SVAEAPAPIDCELSTWSSWTACDPCQKKRYRHTYLLRPSQFYGELCDLSDKEVEDCVTNQPCRSQVRCEGFVCAQTGRCVNRRLLCNGDNDCGDQSDEANCRRIYKNCQREMEQYWAIDRLASGINLFTNTFEGPVLDHRYYAGGCSPHYILDTNFRKPYNVESYTPQTKCEYEFTLTEYESYSDFERLVIEKKTHMFNFTSGFKVDGVMDLGIKVESNEGKNYVTRTKRFAHTQSKFLHARSVLEVAHYKLKSRSLMLHYEFLQRVKSLPLEYSYGEYRDLLRDFGTHFITEAVLGGIYEYTLIMNKDAMEQGDYTLSHVTACAGGSFGIGGMVYKVYVKVGVSAKKCSDIMKEINERNKRSTMVEDLVVLVRGGTSEDITALAYKELPTPELMEAWGDAVKYNPAIIKIKAEPLYELVTATDFAYSSTVKQNLKKALEEFQSEVSSCRCAPCRGNGVPVLKGSRCECICPGGFQGTACEVTYRKDIPIDGKWSCWSDWSACSGGHKTRHRQCNNPAPHKGGSPCSGPASETLNC | 5.4396 | 4.6261
3 | Cluster of Murinoglobulin-1 (protein, UniProt P28665 28-1476, looked up) Murinoglobulin-1: DSKYMVLVPSQLYTETPEKICLHLYQLNETVTVTASLVSQSGRKNLFDELVLDKDLFQCVSFIIPRLSSSDEEDFLYVDIKGPTHEFSKRKAVLVKNKESVVFVQTDKPVYKPGQSVKFRVVSMDKMLRPLNELLPLAYIEDPKKNRIMQWRDIKTENGLKQMSFSLAAEPIQGPYKIVVHKESGEKEEHSFTVMEFVLPRFNVDLKVPNAMSVNDEVLSVTACGKYTYGKPVPGHVKINVCRETETGCREVNSQLDNNGCSTQEVNITELQSKKRNYEVQLFHVNATVTEEGTGLEFSRSGTTKIERITNKLIFLKADSHFRHGIPFFVKVRLVDIKGDPIPNEKVFIKAQELSYTSATTTDQHGLAEFSIDTTCISGSSLHIKVNHKEEDSCSYFYCMEERHASAKHVAYAVYSLSKSYIYLDTETSSILPCNQIHTVQAHFILKGDLGVLKELIFYYLVMAQGSIIQTGNHTHQVEPGEAPVKGKFALEIPVEFSMVPMAKMLIYTILPDGEVIADSVNFEIEKCLRNKVDLRFSTSQSLPASQTRLQVTASPQSLCGLRAVDQSVLLLKPESELSPSWIYNLPGMQQNKFVPSSRLSEDQEDCILYSSWLAEKHTNLVPHGTEKDVYRYVEDMGLTAFTNLMIKLPIICFDYGMVPISAPRVEFDLAFTPEISWSLRTTLSKRPEEPPRKDPSSNDPLTETIRKYFPETWVWDIVTVNSTGLAEVEMTVPDTITEWKAGALCLSNDTGLGLSSVVPLQAFKPFFVEVSLPYSVVRGEAFMLKATVMNYLPTSMQMSVQLEASPDFTAVPVGDDQDSYCLSANGRHTSSWLVTPKSLGNVNFSVSAEAQQSSEPCGSEVATVPETGRKDTVVKVLIVEPEGIKQEHTFSSLFCASDAEISEKMSLVLPPTVVKDSARAHFSVMGDILSSAIRNTQNLLHMPYGCGEQNMVLFAPNIYVLKYLNETQQLTQKIKTKALGFLRAGYQRELNYKHKDGSYSAFGDQNGEREGNTWLTAFVLKSFAQARAFIFIDESHITHAFTWLSQKQKDNGCFRSSGSLFNNAMKGGVDDEMTLSAYITMALLESSLPATHPVVSKALSCLESSWKTIEQERNASFVYTKALMAYAFALAGNQNKRDEILKSLDEEAIKENNSIHWKRPQKSRKSEHHLYKPQASSAEVEMNAYVVLARLTAQPAPSPEDLTLSMSTIMWLTKQQNSNGGFSSTQDTVVALDALSKYGAVTFSRSQKTTLVTIQSTGSFSQKFQVENSNRLLLQQVALPDIPGDYTISVSGEGCVYAQTMLRYNMHLEKQLSAFAIWVQTVPLTCNNPKGHNSFQISLEISYTGSRPASNMVIADVKMLSGFIPLKPTVKKLERLEHVSRTEVSNNNVLIYLDQVTNQTLAFSFIIQQDIPVRNLQPAIVKVYDYYETDEMAFAEYSSPCSTDKQNV | 63.099 | 61.99
4 | Vitamin K-dependent protein Z (protein, UniProt Q9CQW3 41-399, looked up) Vitamin K-dependent protein Z: GSSYFLEEIFQGNLEKECYEEVCNYEEAREVFENDVITDEFWRQYGGGSPCVSQPCLNNGTCEDHIRSYSCTCSPGYEGKTCAMAKNECHLERTDGCQHFCHPGQSSYMCSCAKGYKLGKDQKSCGPSDKCACGALTSEHIRMTKSSQSQPSFPWQVRLTNSEGEDFCAGVLLQEDFVLTTAKCSLLHSNISVKANVDQRIRIKSTHVHMRYDEESGENDVSLLQLEEPLQCPSSGLPVCVPERDFAEHVLIPGTEGLLSGWMLNGTHLATTPMLLSVTQADGEECGQTLNVTVTTRTSCEKGSVVMGPWVEGSVVTREHKGTWFLTGILGSPPPPGQSQMLLLTAVPRYSMWFKQIMK | 5.4396 | 0.9252
5 | BPI fold-containing family A member 2 (protein, UniProt P07743 21-235, looked up) BPI fold-containing family A …: LLGELGSAVNNLKILNPPSEAVPQNLNLDVELLQQATSWPLAKNSILETLNTADLGNLKSFTSLNGLLLKINNLKVLDFQAKLSSNGNGIDLTVPLAGEASLVLPFIGKTVDISVSLDLINSLSIKTNAQTGLPEVTIGKCSSNTDKISISLLGRRLPIINSILDGVSTLLTSTLSTVLQNFLCPLLQYVLSTLNPSVLQGLLSNLLAGQVQLAL | 4.3517 | 26.832
6 | Serum paraoxonase/arylesterase 1 (protein, UniProt P52430 1-355, looked up) Serum …: MAKLLALTLVGLVLALYKNHRSSYQTRLNAFREVTPVELPNCNLVKGIETGAEDLEILPNGLTFFSTGLKYPGIKSFDPSKPGKILLMDLNKKEPAVSELEIIGNTLDISSFNPHGISTFTDEDNTVYLLVVNHPDSSSTVEVFKFQEEERSLLHLKTITHELLPSINDIAAIGPESFYATNDHYFADPYLRSWEMYLGLSWSNVVYYSPDKVQVVAEGFDFANGIGISLDGKYVYIAELLAHKIHVYEKHANWTLTPLKVLNFDTLVDNISVDPVTGDLWVGCHPNGMRIFFYDAENPPGSEVLRIQNILSEDPKITVVYAENGTVLQGTTVASVYKGKLLIGTVFHKALYCDL | 4.3517 | 15.729
7 | Serum amyloid A-4 protein (protein, UniProt P31532 19-130, looked up) Serum amyloid A-4 protein: DGWYSFFREAVQGTWDLWRAYRDNLEANYQNADQYFYARGNYEAQQRGSGGIWAAKIISTSRKYFQGLLNRYYFGIRNHGLETLQATQKAEEWGRSGKNPNHFRPEGLPEKF | 4.3517 | 10.178
8 | Zinc-alpha-2-glycoprotein (protein, UniProt Q64726 18-307, looked up) Zinc-alpha-2-glycoprotein: QETGSYYLTFLYTGLSRPSKGFPRFQATAFLNDQAFFHYNSNSGKAEPVGPWSQVEGMEDWEKESQLQRAREEIFLVTLKDIMDYYKDTTGSHTFQGMFGCEITNNRSSGAVWRYAYDGEDFIEFNKEIPAWIPLDPAAANTKLKWEAEKVYVQRAKAYLEEECPEMLKRYLNYSRSHLDRIDPPTVTITSRVIPGGNRIFKCLAYGFYPQRISLHWNKANKKLAFEPERGVFPNGNGTYLSWAEVEVSPQDIDPFFCLIDHRGFSQSLSVQWDRTRKVKDENNVVAQPQ | 4.3517 | 3.7009
9 | Phosphatidylcholine-sterol acyltransferase (protein, UniProt P16301 25-438, looked up) Phosphatidylcholine-sterol …: FWLLNVLFPPHTTPKAELSNHTRPVILVPGCLGNRLEAKLDKPDVVNWMCYRKTEDFFTIWLDFNLFLPLGVDCWIDNTRIVYNHSSGRVSNAPGVQIRVPGFGKTESVEYVDDNKLAGYLHTLVQNLVNNGYVRDETVRAAPYDWRLAPHQQDEYYKKLAGLVEEMYAAYGKPVFLIGHSLGCLHVLHFLLRQPQSWKDHFIDGFISLGAPWGGSIKAMRILASGDNQGIPILSNIKLKEEQRITTTSPWMLPAPHVWPEDHVFISTPNFNYTVQDFERFFTDLHFEEGWHMFLQSRDLLERLPAPGVEVYCLYGVGRPTPHTYIYDHNFPYKDPVAALYEDGDDTVATRSTELCGQWQGRQSQPVHLLPMNETDHLNMVFSNKTLEHINAILLGAYRTPKSPAASPSPPPPE | 4.3517 | 6.4766
